Values from PubChem BioAssay AID504761 (Drosophila RNAi Screening Center, 2011).
Aim: 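Fly genes whose silencing reduces dengue virus type 2 infection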 (primary screen). Cell system: D.Mel-2 cells from Drosophila. Reagent: long dsRNA against Drosophila genes. Treatment: infection with dengue virus type 2; dose and infection time not stated. Read-out: 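Per well on two replicate plates, imaging gave the percent of cells positive for viral envelope protein, ranked by infection, and a nuclear count of cells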. Direction: infection score: higher = more virus-infected cells. Rule for the call: 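Very low infection ranking in both replicate wells (chance probability at most 0.065), then a retest showing infection dropped 1.5-fold or more at p below 0.05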. Calls: active = confirmed: knock-down lowers infection; inactive = not picked or not confirmed.
The screen tested about 22,000 reagents; this is an unselected part of those that have a named target and a result. Of all reagents, 116 (0.52%) are marked active. 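Calls depend on retest data that are not deposited; infection was ranked per plate without normalising between plates; the unit of the infection score is not given.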 Not all columns of the deposit are shown. The record does not give: the amount of reagent, the time to read-out.

With knock-down of CG4477 [DRSC10425] the results were infection score, replicate 1 = 1.57; inactive. Depletion of Lerp [DRSC14750] came out at: infection score, replicate 1 = 0.89; inactive. Lerp [DRSC14751] showed infection score, replicate 1 = 13; inactive. Against Lerp [DRSC16030] the deposit lists infection score, replicate 1 = 10; inactive. For Lerp [DRSC16031], the entry reads infection score, replicate 1 = 4.69; inactive. For mtm [DRSC03576] the deposit lists infection score, replicate 1 = 1.69; inactive.

2 consecutive records already listed, quoted:
Lerp [DRSC16030]: infection score, replicate 1 = 10; activity call = inactive
Lerp [DRSC16031]: infection score, replicate 1 = 4.69; activity call = inactive

Next results follow.
For CG7366 [DRSC10825] the deposit lists infection score, replicate 1 = 3.55; inactive. Depletion of CG7366 [DRSC29988] resulted in: infection score, replicate 1 = 18.6; inactive. Silencing of Shaw [DRSC00433] came out at: infection score, replicate 1 = 4.13; inactive. Knock-down of Shaw [DRSC00788] came out at: infection score, replicate 1 = 2.57; inactive. After knock-down of Shaw [DRSC21368], the screen gave infection score, replicate 1 = 1.44; inactive. Pabp2 [DRSC07501] scored infection score, replicate 1 = 31.8; inactive.
